Anti-infective test results gathered from many reports (values: NIAID ChemDB through PubChem).

All rows: growth or infection tests; agent: Coxsackie virus; read-out: EC50

Blank or dashed fields: not listed here. Lines come from different laboratories, so protocols vary. ECn: concentration that inhibits the pathogen or its effect by n%.

SMILES,method,cells,strain,value
Nc1ncnc2c1ncn2C[C@H](O)CO,cytopathic effect,VERO,TYPE B4,>400 µg/mL
N#Cc1c(N2CCCCC2)nsc1-c1ccccc1,plaque count,HEP-2,TYPE B1,>25 µg/mL
Nc1nccc2c1ncn2[C@@H]1C[C@H](CO)[C@@H](O)[C@H]1O,cytopathic effect,HeLa,TYPE B4,>400 µg/mL
NC(=O)c1c[se]c([C@@H]2O[C@H](CO)[C@@H](O)[C@H]2O)n1,cytopathic effect,HeLa,TYPE B4/JVB,6 µg/mL
Nc1ncnc2c1ccn2[C@@H]1O[C@H](CO)[C@H](O)[C@H]1O,cytopathic effect,VERO,TYPE B4,≥40 µg/mL
Nc1nccc2c1ncn2[C@@H]1O[C@H](CO)[C@@H](O)[C@H]1O,cytopathic effect,VERO,TYPE B4,10 µg/mL
Cc1cn([C@@H]2C[C@H](CO)[C@H](O)C2)c(=O)[nH]c1=O,cytopathic effect,VERO,TYPE B4,>200 µg/mL
CC(=O)OC1C=COC=C2C[C@@]34NC(=S)S[C@]5(CC6=COC=CC(OC(C)=O)C6N5C3=O)C(=O)N4C21,-,HeLa,TYPE A21,3 µg/mL
Nc1ncnc2c1ncn2C[C@@H](CO)OCP(=O)(O)O,cytopathic effect,-,TYPE B4,>50 µM
NC(=O)c1ncn([C@@H]2O[C@H](CO)[C@@H](O)[C@H]2O)c1C#CCO,cytopathic effect,HeLa,TYPE B4,10 µg/mL
Nc1nc(Cl)c2nnn(C[C@H]3CC[C@@H](CO)C3)c2n1,cytopathic effect,HeLa,TYPE B4,>200 µg/mL
CC(=O)OC1C=COC=C2C[C@@]3(O)C(=O)N4C5C(=COC=CC5OC(C)=O)C[C@@]4(S)C(=O)N3C21,-,HeLa,TYPE A21,121 µg/mL
CCCSc1nsc(-c2ccccc2)c1C(N)=O,plaque count,HEP-2,TYPE B1,>300 µg/mL
Nc1ncnc2c1ccn2[C@@H]1O[C@H](CO)[C@@H](O)[C@H]1O,cytopathic effect,VERO,TYPE B4,0.07 µg/mL
Nc1nc2c(nnn2C[C@H]2CC[C@@H](CO)C2)c(=O)[nH]1,cytopathic effect,VERO,TYPE B4,>200 µg/mL
OCCOC(CCO)n1cnc2cc(Cl)c(Cl)cc21,cytopathic effect,HeLa,TYPE B4,>200 µg/mL
O=[N+]([O-])c1c(Cl)ncnc1N1CC[N+]2(CC1)CC[N+]1(CCN(c3ncnc(Cl)c3[N+](=O)[O-])CC1)CC2,cytopathic effect,HeLa,B3,>70 µg/mL
Nc1nccc2c1ncn2[C@@H]1C=C(CO)[C@@H](O)[C@H]1O,cytopathic effect,HeLa,TYPE B4,>400 µg/mL
NC(=O)c1cn([C@@H]2O[C@H](CO)[C@@H](O)[C@H]2O)c2ncnc(N)c12,cytopathic effect,VERO,TYPE B4,0.02 µg/mL
CC(=O)OC1C=COC=C2C[C@H]3C(=O)N4C5C(=COC=CC5OC(C)=O)C[C@H]4C(=O)N3C21,-,HeLa,TYPE A21,30 µg/mL
Nc1ncnc2c1ncn2[C@@H]1C=C(CO)[C@@H](O)[C@H]1O,cytopathic effect,HeLa,TYPE B4,>10 µg/mL
O=C1C2CC3=COC=CC(O)C3N2C(=O)C2=CC3=COC=CC(O)C3N12,-,HeLa,TYPE A21,0.00009 µg/mL
Nc1ncnc2c1ncn2C[C@H](O)CO,cytopathic effect,VERO,TYPE B4,70 µg/mL
Nc1ncnc2c1c(Br)cn2[C@@H]1O[C@H](CO)[C@@H](O)[C@H]1O,cytopathic effect,HeLa,TYPE B4,0.2 µg/mL
Cc1cc(N2CC[N+](C)(C)CC2)c([N+](=O)[O-])c(N2CC[N+](C)(C)CC2)c1,cytopathic effect,HeLa,B3,>70 µg/mL
Clc1cc2nc[nH]c2cc1Cl,cytopathic effect,HeLa,TYPE B4,>10 µg/mL
ClCN1CC[N+]2(CC1)CC[N+]1(CCN(CCl)CC1)CC2,cytopathic effect,HeLa,B3,>70 µg/mL
Nc1ncnc2c1ccn2[C@@H]1O[C@H](CO)C[C@H]1O,cytopathic effect,VERO,TYPE B4,60 µg/mL
NC(=O)c1ncn([C@@H]2O[C@H](CO)[C@@H](O)[C@H]2O)n1,cytopathic effect,HeLa,TYPE B4,40 µg/mL
O[C@@H]1[C@@H](OCc2ccccc2)[C@@H](COCc2ccccc2)O[C@H]1n1cnc2cc(Cl)c(Cl)cc21,cytopathic effect,HeLa,TYPE B4,>10 µg/mL
Nc1ncnc2c1ccn2[C@@H]1O[C@H](CO)[C@H](O)[C@H]1O,cytopathic effect,VERO,TYPE B4,≥40 µg/mL
CCCC#Cc1c(C(N)=O)ncn1[C@@H]1O[C@H](CO)[C@@H](O)[C@H]1O,cytopathic effect,HeLa,TYPE B4,>200 µg/mL
O=C1N(CCCCCOc2ccc(-c3ccc(Cl)cc3)cc2)CCN1c1ccncc1,plaque count,RD,TYPE B4,1.3 µM
CCCSc1nsc(-c2ccccc2)c1C#N,plaque count,HEP-2,TYPE B1,>200 µg/mL
Nc1nccc2c1ncn2[C@@H]1C[C@H](CO)[C@@H](O)[C@H]1O,cytopathic effect,VERO,TYPE B4,300 µg/mL
O=c1[nH]cnc(N2CC[N+]3(CC2)CC[N+]2(CCN(c4nc[nH]c(=O)c4[N+](=O)[O-])CC2)CC3)c1[N+](=O)[O-],cytopathic effect,HeLa,B3,>70 µg/mL
CC1(Cn2cnc3c(N)ncnc32)CC1CO,-,-,TYPE B3,>100 µg/mL
CC(=O)OC1C=COC=C2CC34SSC5(CC6=COC=CC(OC(C)=O)C6N5C3=O)C(=O)N4C21,-,HeLa,TYPE A21,0.1 µg/mL
Cc1cn([C@H]2C[C@@H]3OC[C@H]2[C@@H]3CO)c(=O)[nH]c1=O,cytopathic effect,HeLa,TYPE B4,>400 µg/mL
C[C@H](COc1cc(N)nc(N)n1)OCP(=O)(O)O,cytopathic effect,-,TYPE B4,>180 µM
CC(=O)OC1C=COC=C2C[C@@]34S[C@]5(CC6=COC=CC(OC(C)=O)C6N5C3=O)C(=O)N4C21,-,HeLa,TYPE A21,3.8 µg/mL
CCCOC(=O)C(CCSC[C@H]1O[C@@H](n2ccc3c(N)ncnc32)[C@H](O)[C@@H]1O)NC(=O)C(F)(F)F,cytopathic effect,VERO,TYPE B4,150 µg/mL
CN1C(=O)[C@]23CC4=CC=C[C@H](O)[C@H]4N2C(=O)[C@@]1(CO)S3,-,HeLa,TYPE A21,0.02 µg/mL
Nc1ncnc2c1ncn2C[C@H](O)CO,cytopathic effect,HeLa,TYPE B4,>400 µg/mL
CC(=O)OC1C=COC=C2C[C@@H]3C(=O)N4C5C(=COC=CC5OC(C)=O)C[C@H]4C(=O)N3C21,-,HeLa,TYPE A21,20 µg/mL
N#Cc1c(N2CCOCC2)nsc1-c1ccccc1,plaque count,HEP-2,TYPE B1,>1 µg/mL
Nc1nccc2c1ncn2[C@@H]1C[C@H](CO)[C@@H](O)[C@H]1O,cytopathic effect,HeLa,TYPE B4,>400 µg/mL
C[C@H](Cn1cnc2c(N)ncnc21)OCP(=O)(O)O,cytopathic effect,-,TYPE B4,>525 µM
O[C@H]1[C@@H](O)COC(n2cnc3cc(Cl)c(Cl)cc32)[C@@H]1O,cytopathic effect,HeLa,TYPE B4,>200 µg/mL
Cc1cn([C@@H]2C[C@H](CO)[C@@H](O)C2)c(=O)[nH]c1=O,cytopathic effect,VERO,TYPE B4,>100 µg/mL
CCOC(=O)CSc1nsc(-c2ccccc2)c1C#N,plaque count,HEP-2,TYPE B1,>200 µg/mL
Nc1nccc2c1ncn2[C@@H]1C[C@H](CO)[C@@H](O)[C@H]1O,cytopathic effect,VERO,TYPE B4,>100 µg/mL
CCCSc1nsc(-c2ccccc2)c1C(=O)OC,plaque count,HEP-2,TYPE B1,>50 µg/mL
CC(C)[Si]1(C(C)C)OC[C@H]2O[C@@H](n3cnc4cc(Cl)c(Cl)cc43)[C@H](O)[C@H]2O[Si](C(C)C)(C(C)C)O1,cytopathic effect,HeLa,TYPE B4,>10 µg/mL

For reference, 5 entries again:

SMILES,method,cells,strain,value
CC(=O)OC1C=COC=C2C[C@@H]3C(=O)N4C5C(=COC=CC5OC(C)=O)C[C@H]4C(=O)N3C21,-,HeLa,TYPE A21,20 µg/mL
CCCSc1nsc(-c2ccccc2)c1C(=O)OC,plaque count,HEP-2,TYPE B1,>50 µg/mL
CC1(Cn2cnc3c(N)ncnc32)CC1CO,-,-,TYPE B3,>100 µg/mL
Nc1ncnc2c1ccn2[C@@H]1O[C@H](CO)[C@H](O)[C@H]1O,cytopathic effect,VERO,TYPE B4,≥40 µg/mL
Nc1nc2c(nnn2C[C@H]2CC[C@@H](CO)C2)c(=O)[nH]1,cytopathic effect,VERO,TYPE B4,>200 µg/mL